Human monoclonal antibodies against the spike receptor-binding domain (heavy:light variable regions). IC50 against pseudoviruses bearing the spike of naturally observed variants; lower = stronger; >10 µg/ml means not reached at the top dose. No active / inactive call. The stated detection limit is 0.0005 µg/ml; values near or below 0.001 µg/ml lie at the floor of the assay.
Columns and labels:
Assay in all cases: pseudovirus neutralization IC50; higher = weaker neutralization
[1] = molecular target: SARS-CoV-2 Omicron BA.1 spike pseudovirus
Procedure: (§1)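 Single-round VSV luciferase pseudovirus mixed with antibody dilutions for 1 h and put on Huh-7 cells for about a day; IC50 from the dose curve.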

[2] = molecular target: SARS-CoV-2 Omicron BA.2 spike pseudovirus
Procedure: as §1

[3] = molecular target: SARS-CoV-2 Omicron BA.2.75 spike pseudovirus
Procedure: as §1

[4] = molecular target: SARS-CoV-2 Omicron BA.5 spike pseudovirus
Procedure: as §1

[5] = molecular target: SARS-CoV-2 Omicron BQ.1.1 spike pseudovirus
Procedure: as §1

[6] = molecular target: SARS-CoV-2 Omicron XBB spike pseudovirus
Procedure: as §1

[7] = molecular target: SARS-CoV-2 early D614G spike pseudovirus
Procedure: as §1

| Binder | pseudovirus neutralization IC50 [1] [µg/mL] | pseudovirus neutralization IC50 [2] [ng/mL] | pseudovirus neutralization IC50 [3] [µg/mL] | pseudovirus neutralization IC50 [4] [µg/mL] | pseudovirus neutralization IC50 [5] [µg/mL] | pseudovirus neutralization IC50 [6] [µg/mL] | pseudovirus neutralization IC50 [7] [ng/mL] |
| --- | --- | --- | --- | --- | --- | --- | --- |
| BD56-1859 (protein) chain 1: QVQLQESGPGLVKPSGTLSLTCAVSGGSISIINWWSWVRQPPGKGLEWIGEIHQSGNTNYSPSLKSRVTISVDKSKNQFSLKLSSVTAADTAVYYCARDRGGVGDAFDIWGQGTMVTVSS chain 2: QSALTQPASVSGSPGQSITISCTGTGSDVGSYNYVSWYQQHPGKAPKLIIYDVSDRPSGVSHRFSGSKSGNTASLTISGLQAEDEADYYCNSYASGSTRVFGTGTKVTVL | > 10 | 44.2 | > 10 | 0.018 | > 10 | > 10 | 8.39 |
| BD56-1838 (protein) chain 1: QVQLVQSGAEVRRPGASVKVSCKVSGYSLSELSIHWVRQAPGEGLQWMGGFDPEDGETIYSQKFQGRVTMTEDTSTDTAYMDLSRLRSEDTAVYFCTTGGVYTTSFDFWGQGTLVTVSS chain 2: DIVMTQSPDSLAVSLGERATINCKSSQSVLYSATKKNYLSWYQQRPGQPPKLLIYWASTRASGVPDRFSGSGSGTDFTLTISSLQAEDVAVYYCQQYSNTPPRYTFGQGTKLEIK | 0.000727 | 8.6 | 0.000502 | 0.338 | 0.439 | > 10 | 0.648 |
| BD56-1870 (protein) chain 1: EVQLVESGGGVVQPGRSLRLACGASDFTFSDSDMHWIRQPPGKGLDWVAVISSDGSGKFYADSVKGRFTISRDNSKNTLFLQMNSLRAEDTAVYYCAKQSNYDILTGGPFDSWGQGTLVTVSS chain 2: DIQMTQSPSSLSASVGDRVTISCRASLGIRSSIAWYQQKPGKAPKLLLYAASRLETGVPSRFSGSGSGTDYTLTISSLQPEDFATYYCQQYYSAPPYTFGQGTKLEIK | > 10 | > 10000 | > 10 | > 10 | > 10 | > 10 | 423 |
| BD56-1873 (protein) chain 1: QVQLVQSGAEVKKPGSSVKVSCKASGGSFSRHSISWVRQAPGQGLEWMGRTIPIVEIVNYAQKFQGRFTITAEKSTSTVYMELNSLRVEDTAVYYCARETEATEDFGNPNWFDPWGQGTLVTVSS chain 2: DIVMTQSPDSLAVSLGERATINCKSSQSVLYTSNSKNYLAWYQQKPGQPPKLLIYWASTRESGVPERFGGSGSGTDFTLTISSLQAEDVAVYYCLQYYGNPRTFGQGTKVEIK | 0.0214 | 6.98 | 0.00593 | > 10 | > 10 | > 10 | 6.97 |
| CV07-250 (protein) chain 1: QVQLVQSEAEVKEPGASVEVSCKASGYNFTNFAISWVRQAPGQGLEWMGWISGYNGDTNSAQKFLGRVTMTTDTSTTTAYMELRSLRSDDTAVYYCAGSDNYGFPYNGMDVWGQGTTVTVSS chain 2: QSALTQPPSASGSPGQSVTISCTGTSSDLGAYHFVTWYQHYPGKAPKVMIYGVRKRPSGVPDRFSGSKSGNTASLTVSGLQDEDEADYYCSSYAGNNDFVFGGGTKLTVL | > 10 | > 10000 | > 10 | > 10 | > 10 | > 10 | 1.69 |
| BD56-1844 (protein) chain 1: QVQLAESGGGVVQPGRSLRLSCAASGFTFSVYPMHWVRQSPGKGPEWVAVISYDGSYKYYADSVKGRVTISRDNSKNMVYLQLNSLRIDDSAVYYCARVSPRGRDYYDESGSYYVGFAELDNWGQGTLVTVSS chain 2: DIQMTQSPSSLSASVGDRVTVTCRASQSIASHLNWYQQKSGKAPKLLIYAASTLQSGVPSRFSGSESGTDFTLTISSLQPEDFATYYCQQSYSSPYTFGQGTNLEIK | > 10 | > 10000 | > 10 | > 10 | > 10 | > 10 | 819 |
| BD56-1854 (protein) chain 1: EVLLVESGGGLIQPGGSLRLSCAASEIIVSNNYMTWVRQTPGKGLEWVSVLYSGGSTFYEDSVKGRFTISRDDSENKLYLQMNSLRVEDTAVYYCARGDAMDFYYGLDVWGQGTTVTVSS chain 2: QSVLTQPPSVSGAPGQRVTISCTGSSSNIGAGSYVHWYQHVPGTAPKLLIYADINRPSGVPDRFSGSRSGTSASLAISGLQTEDEAVYYCQSYDSSLSGSLFGGGTKLTVL | 0.00108 | 2.96 | 0.0023 | 0.00133 | 0.00621 | 0.00891 | 3.75 |
| BD56-1865 (protein) chain 1: EVQLVESGGGLVQPGRSLRLSCAASGFTFGDYAMHWVRQAAGKGLEWVSGLTYNGGVMDYAASVKGRFFISRDNAKNSLYLQMNSLRAEDTAFYFCAKDMGTYYDTLTGFYDDHKFFHYWGQGTLVTVSS chain 2: DIVMTQSPDSLAVSLGERATINCKSSQSVLYSSNNKNNLAWYQQKPGQPPKLLIYWASTRESGVPDRFSGSGSGTDFTLTISSLQAEDVAVYYCQQYYSLPLTFGPGTKVDIK | 0.109 | 80.5 | 0.0504 | 1.78 | > 10 | 4.1 | 109 |
| BD56-1860 (protein) chain 1: QVQLQESGPGLVKPSQTLSLTCTVSGASISSGSYYWSWIRQPAGKGLEWIGRISTSGSTNSTSSLKSRVTISVDKSKNQFSLKLNSVTAADTAVYYCARGVEPLLGWFDPWGQGTLVTVSS chain 2: SYVLTQPPSVAEAPGKTARVTCGGNNIGSKSVHWYQQKPGQAPVMLIYYDSERPSGIPERFSGSNSGNTATLTISRVEAGDEADYYCQVWDTSGDHPVFGGGTKLSVL | 9.86 | > 10000 | 3.62 | > 10 | > 10 | > 10 | 354 |
| BD56-1857 (protein) chain 1: QITLKESGPTLVKPTQTLTLTCTFSGFSLSTGGVGVGWIRKPPGKALEWLALIYWDDDKRYNPSLTSRVTVTKDTSKSQVVLTVTNIDPVDTATYYCAHYSLERLFDFWGQGTLVTVSS chain 2: QSALTQPASVSGSPGQSITISCTGASSAVGTYNYVSWYQHHPGKAPKLMIYAVNNRPSGISNRFSGSKSGNTASLTISGLQAEDEADYYCSSYTDSSVVFGGGTKLTVL | 0.571 | 3.28 | 0.131 | 0.00305 | > 10 | > 10 | 10.2 |
| BD56-1840 (protein) chain 1: EVQLVESGGGLVQPGGSLRLSCAASGLTVSSNYMSWVRQAPGKGLEWLSLIYPGGTTYFADSVKGRFTISRHNSKNTLYLQMNSLRPEDTAVYYCARDVLGETGMDVWGQGTTVTVSS chain 2: DIQMTQSPSSLSASVGDRVTITCQASHDINKYLNWYQQKPGKAPKLLIYDASNLETGVPSRFSGSGSGTDFTFTISSLQPEDIATYYCQQYDNLPRTFGQGTNLEIK | 0.00651 | 7.69 | > 10 | 0.0117 | > 10 | > 10 | 37.4 |
| BD56-1869 (protein) chain 1: QVQLVQSGTEVKKPGSSVKVSCKASGGALNNHAISWVRQAPGQGLEWMGRIIPILSIPNYAQKFQGRVTITADKTTSTAYMELSSLRSDDTAVYYCARESYSYSSGVPGTAGSWFDPWGQGSLVIVSS chain 2: DIQMTQSPPSLSASVGDRVTITCRASQSISTYLNWYQHKPGKPPKLLISAASSLQSGVPSRFSGSGSGTDFTLTISSLQLEDFATYYCQQSYNTLWTFGQGTKVEIK | 0.00275 | 5.97 | 0.337 | > 10 | > 10 | > 10 | 3.32 |

Reference: the supplement of paper PMC9931576
